# HIV-1 NL4-3 point mutations in Vif: replication capacity

The measurements come from Al-Mawsawi et al. 2014 (doi:10.1186/s12977-014-0124-6).

Protein: Vif of HIV-1 NL4-3, numbered from its first residue. The source prints no sequence; the chain below is taken from UniProt P12504, a closely related isolate, and fits the source at the 145 positions it covers.
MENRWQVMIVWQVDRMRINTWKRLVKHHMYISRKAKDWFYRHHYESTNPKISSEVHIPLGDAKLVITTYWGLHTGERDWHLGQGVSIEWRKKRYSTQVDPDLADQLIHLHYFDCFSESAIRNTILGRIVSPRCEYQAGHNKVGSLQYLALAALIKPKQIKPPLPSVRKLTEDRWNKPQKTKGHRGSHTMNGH
"Other frame" gives the effect on an overlapping gene as the source lists it; other overlaps (genes, RNA elements) are not shown.

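Random point mutant libraries of HIV-1 NL4-3, one for each of seven fragments, were passaged in CEM T lymphocytes. Sequencing gave the RC index: frequency after two rounds over frequency in the input plasmid.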

RC index: lower means poorer replication; rough cut-offs are 0.1 (lethal) and 0.2 (tolerated). Each entry names the wild-type residue, its position and the residue put in its place. Input reads are the counts in the plasmid library. Clones carried about five changes per kilobase, which can drag down the index of neutral changes. The authors read an index above 1 as above wild type (1.9% of all changes in the genome). Base changes are numbered along pNL4-3.

With Y69H (base T5245C, input reads 141) the assay gave 0.165. With G84E (base G5291A, input reads 189) the assay gave 0.156. G126E (base G5417A, input reads 126) read 0.345. For Q146K (base C5476A, input reads 89) the result was 0.138. For H56L (base A5207T, input reads 302) the result was 0.0423. C114S (base G5381C, input reads 43) read 0.140. I66M (base A5238G, input reads 145) read 0.0321. For M8L (base A5062T, other frame integrase D278V, input reads 235) the result was 0.0286.

With S52R (base T5196A, input reads 255) the assay gave 0.0201. For H56Y (base C5206T, input reads 600) the result was 0.115. For E117D (base A5391T, input reads 281) the result was 0.0129. P100L (base C5339T, input reads 201) read 0.0309. For L109P (base T5366C, input reads 337) the result was 0.0358. For I128K (base T5423A, input reads 379) the result was 0.0541. With I66K (base T5237A, input reads 275) the assay gave 0.0678. With M189L (base A5605C, other frame Vpr N16T, input reads 135) the assay gave 0.0266.

With M29T (base T5126C, input reads 103) the assay gave 0.149. A119T (base G5395A, input reads 323) gave 0.277. For L59Q (base T5216A, input reads 193) the result was 0.0322. K168E (base A5542G, input reads 188) read 0.101. With K92R (base A5315G, input reads 536) the assay gave 0.330. For E88D (base A5304T, input reads 313) the result was 0.0546. I107V (base A5359G, input reads 136) gave 0.0355. With Y44H (base T5170C, input reads 172) the assay gave 0.119.

With S144A (base T5470G, input reads 81) the assay gave 0.0169. M1T (base T5042C, other frame integrase silent, input reads 329) read 0.0546. Q146H (base G5478C, input reads 89) read 0.0711. With H139D (base C5455G, input reads 128) the assay gave 0.00943. With E117V (base A5390T, input reads 160) the assay gave 0.0302. For N190S (base A5609G, other frame Vpr silent, input reads 577) the result was 0.0498. K160R (base A5519G, input reads 167) gave 0.0947. For P131L (base C5432T, input reads 234) the result was 0.0258.

For P162S (base C5524T, input reads 290) the result was 0.0546. For S144T (base T5470A, input reads 932) the result was 0.0323. For K22I (base A5105T, input reads 271) the result was 0.0377. L125F (base A5415T, input reads 128) read 0.0471. D78E (base C5274A, input reads 137) gave 0.0680. D78H (base G5272C, input reads 36) gave 0.0863. With V10A (base T5069C, other frame integrase silent, input reads 246) the assay gave 0.155. With V166I (base G5536A, input reads 212) the assay gave 0.187.

For N48S (base A5183G, input reads 255) the result was 0.0301. With S46T (base G5177C, input reads 182) the assay gave 0.0843. P156S (base C5506T, input reads 206) gave 0.261. M16I (base G5088A, other frame integrase E287K, input reads 158) read 0.631. With K34N (base A5142T, input reads 332) the assay gave 0.0231. For W79R (base T5275C, input reads 215) the result was 0.0795. G60W (base G5218T, input reads 284) read 0.202. R23G (base A5107G, input reads 359) read 0.798.

With I124M (base A5412G, input reads 155) the assay gave 0.0234. For W89S (base G5306C, input reads 44) the result was 0.0706.

The first 4 entries again:

| substitution | base | other frame | input reads | RC index |
|---|---|---|---|---|
| Y69H | T5245C | none | 141 | 0.165 |
| G84E | G5291A | none | 189 | 0.156 |
| G126E | G5417A | none | 126 | 0.345 |
| Q146K | C5476A | none | 89 | 0.138 |